Biological target: BVDV NS5B RNA-dependent RNA polymerase (Bovine viral diarrhea virus, UniProt P19711)
Conditions: read-out: Michaelis-Menten constant (Km)

Protein sequences, listed by entry. Tags and fused reporters are not part of them. Residues count along the entry.
UniProt P19711, 3270-3988 limits assumed: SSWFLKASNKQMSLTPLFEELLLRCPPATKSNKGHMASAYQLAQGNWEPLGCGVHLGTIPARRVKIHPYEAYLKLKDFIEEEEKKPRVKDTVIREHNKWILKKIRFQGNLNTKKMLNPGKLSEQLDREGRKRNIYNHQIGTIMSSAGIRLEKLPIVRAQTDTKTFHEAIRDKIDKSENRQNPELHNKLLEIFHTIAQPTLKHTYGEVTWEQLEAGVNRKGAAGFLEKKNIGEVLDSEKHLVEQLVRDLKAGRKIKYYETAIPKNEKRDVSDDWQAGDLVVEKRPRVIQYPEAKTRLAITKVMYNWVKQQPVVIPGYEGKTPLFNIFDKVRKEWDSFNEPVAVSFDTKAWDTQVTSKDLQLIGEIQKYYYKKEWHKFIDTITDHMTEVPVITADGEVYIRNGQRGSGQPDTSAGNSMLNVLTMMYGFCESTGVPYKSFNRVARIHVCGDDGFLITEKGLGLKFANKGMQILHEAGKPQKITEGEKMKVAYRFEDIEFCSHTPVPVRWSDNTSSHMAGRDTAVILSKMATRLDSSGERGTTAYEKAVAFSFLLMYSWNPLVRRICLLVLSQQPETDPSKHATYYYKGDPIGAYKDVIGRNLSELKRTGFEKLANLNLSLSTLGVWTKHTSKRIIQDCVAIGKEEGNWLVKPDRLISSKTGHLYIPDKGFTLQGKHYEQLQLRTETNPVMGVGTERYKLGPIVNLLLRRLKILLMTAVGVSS

## Nc1ccn([C@@H]2O[C@H](COP(=O)(O)OP(=O)(O)OP(=O)(O)O)[C@@H](O)[C@H]2O)c(=O)n1 [CTP]
  Km: 0.03 µM

Source: patent publication US7625875B2 (priority 2002, dated 2009)
